Measurements reported in PubChem BioAssay AID624099 (ICCB-Longwood, 2012)
This is one part, drawn at random, of about 21,000 reagents. Of all reagents, 497 (2.4%) got an active call. 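Higher z means weaker E2 silencing; only reporter increases were scored, and knock-downs that hurt cell survival may mask genuine repressor factors.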 Reagents against one gene are numbered here.

Purpose: 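Knock-downs relieving repression by E2 of an HPV18 LCR luciferase reporter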 (primary screen)
System: human C33A cervical carcinoma cells (HPV-negative) stably expressing BPV1 E2 and an HPV18 LCR luciferase reporter
Reagents: siRNA pool against human genes, 40 nM
Timing: 72 h
Read-out: 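Per-well luciferase luminescence, z-scored on each plate against the plate mean and SD with control wells left out, then averaged across three replicate plates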
Direction: mean z-score and z-score: higher = stronger reporter signal, weaker E2 silencing
Rule for the call: 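Hit if mean z-score reaches 2 and two or more of three replicate z-scores also reach 2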

gene | reagent | mean z-score | z-score, replicate A | z-score, replicate B | z-score, replicate C | outcome
DHX33 (DEAH-box helicase 33) | 1 | 1.35 | 1.04 | 1.39 | 1.61 | inactive
TSPAN2 (tetraspanin 2) | 1 | -0.92 | -0.96 | -0.88 | -0.9 | inactive
ITIH5 (inter-alpha-trypsin inhibitor heavy chain 5) | 1 | -0.38 | -0.76 | -0.01 | -0.36 | inactive
ITIH5 (inter-alpha-trypsin inhibitor heavy chain 5) | 2 | -0.22 | -0.23 | -0.21 | -0.21 | inactive
PSMD1 (proteasome 26S subunit, non-ATPase 1) | 1 | -1.95 | -1.87 | -2.05 | -1.93 | inactive
CSGALNACT2 (chondroitin sulfate N-acetylgalactosaminyltransferase 2) | 1 | -0.14 | 0.1 | -0.23 | -0.3 | inactive
FILIP1L (filamin A interacting protein 1 like) | 1 | 1.18 | 0.98 | 1.18 | 1.4 | inactive
PUS10 (pseudouridine synthase 10) | 1 | 0.47 | 0.52 | 0.6 | 0.3 | inactive
SH3BP1 (SH3 domain binding protein 1) | 1 | 1.31 | 1.03 | 1.2 | 1.71 | inactive
SCHIP1 (schwannomin interacting protein 1) | 1 | 0.18 | 0.11 | 0.42 | 0.01 | inactive
SYTL1 (synaptotagmin like 1) | 1 | 0.48 | 0.67 | 0.36 | 0.41 | inactive
SLC7A11 | 1 | -0.82 | -1.03 | -0.42 | -1 | inactive
TXNL4B (thioredoxin like 4B) | 1 | 0.09 | 0.26 | 0.21 | -0.21 | inactive
ZNF565 (zinc finger protein 565) | 1 | 0.1 | 0.33 | 0.18 | -0.21 | inactive
C10orf71 (chromosome 10 open reading frame 71) | 1 | -0.17 | -0.21 | 0.03 | -0.33 | inactive
CRY1 (cryptochrome circadian regulator 1) | 1 | -0.03 | -0.15 | 0 | 0.07 | inactive
DDX60L (DExD/H-box 60 like) | 1 | 0.52 | 0.13 | 0.83 | 0.62 | inactive
DDX60L (DExD/H-box 60 like) | 2 | -0.45 | -0.19 | -0.93 | -0.24 | inactive
ANKRD53 (ankyrin repeat domain 53) | 1 | 0.43 | 0.79 | 0.18 | 0.3 | inactive
ACKR3 (atypical chemokine receptor 3) | 1 | 0.16 | 0.19 | 0.28 | 0 | inactive
MDN1 (midasin AAA ATPase 1) | 1 | -1.28 | -1.3 | -1.47 | -1.06 | inactive
MYO1D (myosin ID) | 1 | 0.2 | 0.35 | 0.1 | 0.14 | inactive
OR4B1 (olfactory receptor family 4 subfamily B member 1) | 1 | 0.33 | 0.7 | -0.1 | 0.39 | inactive
DUX3 (double homeobox 3) | 1 | 0.34 | 0.67 | – | 0.02 | inactive
SLC35F4 | 1 | 0.1 | 0.24 | -0.09 | 0.14 | inactive
CALHM1 (calcium homeostasis modulator 1) | 1 | 0.42 | 0.37 | 1.1 | -0.21 | inactive
EPO (erythropoietin) | 1 | -0.25 | -0.24 | -0.23 | -0.27 | inactive
STK3 (serine/threonine kinase 3) | 1 | 1.04 | 0.86 | 1.09 | 1.18 | inactive
GIT1 (GIT ArfGAP 1) | 1 | -0.92 | -0.88 | -1.17 | -0.71 | inactive
TSPYL4 (TSPY like 4) | 1 | -0.11 | -0.62 | 0.28 | 0 | inactive
HACL1 (2-hydroxyacyl-CoA lyase 1) | 1 | -2.08 | -1.93 | -1.97 | -2.35 | inactive
CTAGE1 (cutaneous T cell lymphoma-associated antigen 1) | 1 | 1.03 | 0.94 | 0.82 | 1.32 | inactive
CTAGE1 (cutaneous T cell lymphoma-associated antigen 1) | 2 | 0.85 | 0.78 | 1.08 | 0.68 | inactive
ZBTB20 (zinc finger and BTB domain containing 20) | 1 | -1.55 | -1.63 | -1.36 | -1.65 | inactive
AOC1 (amine oxidase copper containing 1) | 1 | -0.66 | -0.07 | -0.97 | -0.96 | inactive
HIPK2 (homeodomain interacting protein kinase 2) | 1 | 0.77 | 0.99 | 0.65 | 0.67 | inactive
MAS1 (MAS1 proto-oncogene, G protein-coupled receptor) | 1 | 0.2 | 0.3 | 0 | 0.3 | inactive
LTK (leukocyte receptor tyrosine kinase) | 1 | -0.35 | -0.54 | -0.15 | -0.36 | inactive
ZMAT3 (zinc finger matrin-type 3) | 1 | -0.48 | -0.81 | -0.24 | -0.37 | inactive
SLC7A2 | 1 | -0.08 | -0.05 | 0.09 | -0.26 | inactive
BRD3 (bromodomain containing 3) | 1 | 0.2 | 0.36 | 0.04 | 0.2 | inactive
PIGB (phosphatidylinositol glycan anchor biosynthesis class B) | 1 | 0.78 | 0.97 | 0.65 | 0.71 | inactive
CRYBA2 (crystallin beta A2) | 1 | -0.18 | -0.32 | 0.13 | -0.34 | inactive
PRRC2C (proline rich coiled-coil 2C) | 1 | 0.86 | 0.83 | 1.04 | 0.71 | inactive
PCDHGA9 (protocadherin gamma subfamily A, 9) | 1 | -1.66 | -1.97 | -1.47 | -1.54 | inactive
TNIP2 (TNFAIP3 interacting protein 2) | 1 | -0.11 | -0.11 | -0.4 | 0.17 | inactive
H2AZ2 (H2A.Z variant histone 2) | 1 | 0.56 | 0.38 | 0.82 | 0.5 | inactive
ADGRE4P (adhesion G protein-coupled receptor E4, pseudogene) | 1 | 0.38 | 0.05 | 0.58 | 0.52 | inactive
POU2F2 (POU class 2 homeobox 2) | 1 | -0.36 | -0.31 | -0.41 | -0.37 | inactive
GPRC6A (G protein-coupled receptor class C group 6 member A) | 1 | -1.09 | -1.01 | -0.95 | -1.33 | inactive
FAM162A (family with sequence similarity 162 member A) | 1 | 1.01 | 1.33 | 0.86 | 0.82 | inactive
YIPF3 (Yip1 domain family member 3) | 1 | -0.68 | -0.94 | -0.56 | -0.54 | inactive
POLR2J2 (RNA polymerase II subunit J2) | 1 | -1.91 | -1.89 | -2.05 | -1.77 | inactive
LOC388914 (retired record) | 1 | -0.26 | -0.13 | -0.3 | -0.35 | inactive
CRAMP1 (cramped chromatin regulator 1) | 1 | -0.31 | 0.03 | -0.01 | -0.96 | inactive
PBLD (phenazine biosynthesis like protein domain containing) | 1 | -0.73 | -1.03 | -1.08 | -0.09 | inactive
EVA1B (eva-1 homolog B) | 1 | -0.94 | -0.31 | -0.32 | -2.2 | inactive

8 entries already listed, ordered by “z-score, replicate C”, low to high:
gene | reagent | mean z-score | z-score, replicate A | z-score, replicate B | z-score, replicate C | outcome
HACL1 (2-hydroxyacyl-CoA lyase 1) | 1 | -2.08 | -1.93 | -1.97 | -2.35 | inactive
GIT1 (GIT ArfGAP 1) | 1 | -0.92 | -0.88 | -1.17 | -0.71 | inactive
EPO (erythropoietin) | 1 | -0.25 | -0.24 | -0.23 | -0.27 | inactive
CALHM1 (calcium homeostasis modulator 1) | 1 | 0.42 | 0.37 | 1.1 | -0.21 | inactive
TSPYL4 (TSPY like 4) | 1 | -0.11 | -0.62 | 0.28 | 0 | inactive
CTAGE1 (cutaneous T cell lymphoma-associated antigen 1) | 2 | 0.85 | 0.78 | 1.08 | 0.68 | inactive
STK3 (serine/threonine kinase 3) | 1 | 1.04 | 0.86 | 1.09 | 1.18 | inactive
CTAGE1 (cutaneous T cell lymphoma-associated antigen 1) | 1 | 1.03 | 0.94 | 0.82 | 1.32 | inactive
